# According to patent US7767704B2, “Antiviral 4-aminocarbonylamino-substituted imidazole compounds” (AiCuris GmbH & Co. KG, priority 2004, dated 2010):
# System: HCMV
# Test: Anti-HCMV (anti-human cytomegalovirus) cytopathogenicity test
# Format: cell-based
# Settings: selectivity index = CC50 (NHDF)/EC50 (HCMV)
# Protocol: Anti-HCMV (Anti-human Cytomegalovirus) Cytopathogenicity Tests
# The test compounds are employed as 50 millimolar (mM) solutions in dimethyl sulphoxide (DMSO). Ganciclovir, foscarnet and cidofovir are used as reference compounds. After addition of in each case 2 μl of the 50, 5, 0.5 and 0.05 mM DMSO stock solutions to 98 μl portions of cell culture medium in row 2 A-H for duplicate determinations, 1:2 dilutions are carried out with 50 μl portions of medium up to row 11 of the 96-well plate. The wells in rows 1 and 12 each contain 50 μl of medium. 150 μl of a suspension of 1×10^4 cells (human prepuce fibroblasts [NHDF]) are pipetted into each of the wells (row 1=cell control) and, in rows 2-12, a mixture of HCMV-infected and uninfected NHDF cells (M.O.I.=0.001-0.002), i.e. 1-2 infected cells per 1000 uninfected cells. Row 12 (without substance) serves as virus control. The final test concentrations are 250-0.0005 μM. The plates are incubated at 37° C./5% CO2 for 6 days, i.e. until all the cells are infected in the virus controls (100% cytopathogenic effect [CPE]). The wells are then fixed and stained by adding a mixture of formalin and Giemsa's dye (30 minutes), washed with double-distilled water and dried in a drying oven at 50° C. The plates are then assessed visually using an overhead microscope (plaque multiplier from Technomara).
# The following data can be acquired from the test plates: • CC50 (NHDF)=substance concentration in μM at which no visible cytostatic effects on the cells are evident by comparison with the untreated cell control; • EC50 (HCMV)=substance concentration in […] which inhibits the CPE (cytopathic effect) by 50% compared with the untreated virus control; • SI (selectivity index)=CC50 (NHDF)/EC50 (HCMV).
row,SMILES,SI HCMV
1,"COc1ccc(C(C)NC(=O)c2nc(NC(=O)Nc3ccc(C)c(F)c3)cn2C)cn1 (centres unmarked) [Example 2, 4-({[(3-Fluoro-4-methylphenyl)amino]carbonyl}amino)-N-[1-(6-methoxypyridin-3-yl)ethyl]-1-methyl-1H-imidazole-2-carboxamide]",188 000 ^
2,"Cc1cc(Cl)ccc1NC(=O)Nc1cn(CC2CC2)c(C(=O)NCCCN2CCOCC2)n1 [Example 3, 4-({[(4-Chloro-2-methylphenyl)amino]carbonyl}amino)-1-(cyclopropylmethyl)-N-(3-morpholin-4-ylpropyl)-1H-imidazole-2-carboxamide]",8333
3,Cc1cc(Cl)ccc1NC(=O)Nc1cn(CC2CC2)c(C(=O)NCCCn2cccn2)n1 [Example 11],25 000^
4,COCCOCCCNC(=O)c1nc(NC(=O)Nc2ccc(Cl)cc2C)cn1CC=C(C)C [Example 25],6250
5,COc1ccc(CNC(=O)c2nc(NC(=O)Nc3ccc(OC(F)(F)F)cc3)cn2CC2CC2)cc1 [Example 32],3130
6,"O=C(Nc1ccc(OC(F)(F)F)cc1)Nc1cn(Cc2ccc(C(F)(F)F)cc2)c(C(=O)NCCO)n1 [Example 124, N-(2-Hydroxyethyl)-4-[({[4-(trifluoromethoxy)phenyl]amino}carbonyl)amino]-1-[4-(trifluoromethyl)benzyl]-1H-imidazole-2-carboxamide]",6714
7,O=C(Nc1ccc(OC(F)(F)F)cc1)Nc1cn(Cc2ccc(C(F)(F)F)cc2)c(C(=O)NCCOC(=O)CN2CCOCC2)n1 [Example 139],1679
8,"Cn1cc(NC(=O)Nc2ccc(OC(F)(F)F)cc2)nc1C(=O)NCCCC(F)(F)F [Example 152, 1-Methyl-N-(4,4,4-trifluorobutyl)-4-[({[4-(trifluoromethoxy)phenyl]amino}carbonyl)amino]-1H-imidazole-2-carboxamide]",16 316^
